The values below come from patent publication US20050089926A1, “Ligand sensing fluorescent acetylcholinesterase for detection of organophosphate activity” (priority 2002, published 2005).

Data set [1] concerns mouse AChE mutants labeled with acrylodan. Briefly: Acrylodan fluorescence emission with saturating fasciculin.
For data set [2] the test system is unchanged. As to conditions: acrylodan-labeled mutant; data from Boyd et al. 2000; cited from earlier work.

Where two headings read alike, the source gives them in different places.

B1: E84C (protein, UniProt P21836 32-614, looked up, variant E84C)
Acetylcholinesterase: EGREDPQLLVRVRGGQLRGIRLKAPGGPVSAFLGIPFAEPPVGSRRFMPPEPKRPWSGVLDATTFQNVCYQYVDTLYPGFEGTCMWNPNRELSEDCLYLNVWTPYPRPASPTPVLIWIYGGGFYSGAASLDVYDGRFLAQVEGAVLVSMNYRVGTFGFLALPGSREAPGNVGLLDQRLALQWVQENIAAFGGDPMSVTLFGESAGAASVGMHILSLPSRSLFHRAVLQSGTPNGPWATVSAGEARRRATLLARLVGCPPGGAGGNDTELIACLRTRPAQDLVDHEWHVLPQESIFRFSFVPVVDGDFLSDTPEALINTGDFQDLQVLVGVVKDEGSYFLVYGVPGFSKDNESLISRAQFLAGVRIGVPQASDLAAEAVVLHYTDWLHPEDPTHLRDAMSAVVGDHNVVCPVAQLAGRLAAQGARVYAYIFEHRASTLTWPLWMGVPHGYEIEFIFGLPLDPSLNYTTEERIFAQRLMKYWTNFARTGDPNDPRDSKSPQWPPYTTAAQQYVSLNLKPLEVRRGLRAQTCAFWNRFLPKLLSATDTLDEAERQWKAEFHRWSSYMVHWKNQFDHYSKQERCSDL
On to B1, for which the “Acrylodan Emission Maxima, Saturating Fasciculin” value (“Acrylodan Emission Maxima” below) in data set [1] (acrylodan-labeled mutant) amounted to 512 nm. The “Chromic Shift” value in data set [1] (saturating fasciculin, acrylodan-labeled mutant) is 35 nm. For the same molecule, the “Relative Quantum Yield” value in data set [1] (saturating fasciculin, areas of emission curves) is 0.47.

B2: A262C (protein, UniProt P21836 32-614, looked up, variant A262C)
Acetylcholinesterase: EGREDPQLLVRVRGGQLRGIRLKAPGGPVSAFLGIPFAEPPVGSRRFMPPEPKRPWSGVLDATTFQNVCYQYVDTLYPGFEGTEMWNPNRELSEDCLYLNVWTPYPRPASPTPVLIWIYGGGFYSGAASLDVYDGRFLAQVEGAVLVSMNYRVGTFGFLALPGSREAPGNVGLLDQRLALQWVQENIAAFGGDPMSVTLFGESAGAASVGMHILSLPSRSLFHRAVLQSGTPNGPWATVSAGEARRRATLLARLVGCPPGGCGGNDTELIACLRTRPAQDLVDHEWHVLPQESIFRFSFVPVVDGDFLSDTPEALINTGDFQDLQVLVGVVKDEGSYFLVYGVPGFSKDNESLISRAQFLAGVRIGVPQASDLAAEAVVLHYTDWLHPEDPTHLRDAMSAVVGDHNVVCPVAQLAGRLAAQGARVYAYIFEHRASTLTWPLWMGVPHGYEIEFIFGLPLDPSLNYTTEERIFAQRLMKYWTNFARTGDPNDPRDSKSPQWPPYTTAAQQYVSLNLKPLEVRRGLRAQTCAFWNRFLPKLLSATDTLDEAERQWKAEFHRWSSYMVHWKNQFDHYSKQERCSDL
For B2, the “Acrylodan Emission Maxima” value in data set [2] was 517 nm.

B3: H287C (protein, UniProt P21836 32-614, looked up, variant H287C)
Acetylcholinesterase: EGREDPQLLVRVRGGQLRGIRLKAPGGPVSAFLGIPFAEPPVGSRRFMPPEPKRPWSGVLDATTFQNVCYQYVDTLYPGFEGTEMWNPNRELSEDCLYLNVWTPYPRPASPTPVLIWIYGGGFYSGAASLDVYDGRFLAQVEGAVLVSMNYRVGTFGFLALPGSREAPGNVGLLDQRLALQWVQENIAAFGGDPMSVTLFGESAGAASVGMHILSLPSRSLFHRAVLQSGTPNGPWATVSAGEARRRATLLARLVGCPPGGAGGNDTELIACLRTRPAQDLVDHEWCVLPQESIFRFSFVPVVDGDFLSDTPEALINTGDFQDLQVLVGVVKDEGSYFLVYGVPGFSKDNESLISRAQFLAGVRIGVPQASDLAAEAVVLHYTDWLHPEDPTHLRDAMSAVVGDHNVVCPVAQLAGRLAAQGARVYAYIFEHRASTLTWPLWMGVPHGYEIEFIFGLPLDPSLNYTTEERIFAQRLMKYWTNFARTGDPNDPRDSKSPQWPPYTTAAQQYVSLNLKPLEVRRGLRAQTCAFWNRFLPKLLSATDTLDEAERQWKAEFHRWSSYMVHWKNQFDHYSKQERCSDL
On to B3, for which, in data set [2], the “Acrylodan Emission Maxima” value was 507 nm.
